Experiment [1] relates to Pseudomonas aeruginosa PA-19660. In words: MIC and MBC of aminoglycosides after pre-incubation of PA-19660 with DMSO or compound (175). To be noted: for MBC / MIC: average of triplicate.
For experiment [2] the test system is unchanged. In words: Antibiogram (disk inhibition zones), PA-19660.
Experiment [3] deals with Staphylococcus aureus Newman. In words: Antibiogram (disk inhibition zones), Staphylococcus aureus Newman. To be noted: pre-incubation with compound (175) or (147); FIG. 8 right.
In a further experiment the test system is P. aeruginosa strains. In words: Bacterial growth kinetics in the presence of compound (175). To be noted: compound (175) up to 100 μM.
The mark [4] stands for this setting: pre-incubation with 10 μM compound (175), 2 hours 37 °C.

Six compounds from patent publication US20260384439A1, “[1,2,4]-TRIAZOLO[4,3-B]PYRIDAZINE DERIVATIVES USEFUL AS A MEDICAMENT” (published 2026) can be followed below.

The MBC is the smallest concentration meeting the test's criterion for killing. One may read the MIC as the smallest concentration in the dilution series that meets the test's criterion for growth inhibition. Consider `NC[C@H]1O[C@H](O[C@H]2[C@H](O)[C@@H](O[C@H]3O[C@H](CO)[C@@H](O)[C@H](N)[C@H]3O)[C@H](N)C[C@@H]2N)[C@H](O)[C@@H](O)[C@@H]1O`, for which, in experiment [1] (setting [4]), the MBC came out at 33.33 µg/mL and the MIC worked out at 20.8 µg/mL. In experiment [1] (pre-incubation with 0.1% DMSO), the MBC turned out to be 16.67 µg/mL and the MIC is 12.5 µg/mL.

With Gentamicin sulfate, in experiment [1] (setting [4]), the MBC is 0.521 µg/mL and the MIC was found to be 0.391 µg/mL. In experiment [1] (pre-incubation with 0.1% DMSO), the MBC was found to be 0.521 µg/mL and the MIC worked out at 0.391 µg/mL.

Consider `CCC(CC)CNc1cc(Nc2cccnn2)c2nnc(C(C)C)n2n1`, for which the “effect on aminoglycoside growth inhibition (inhibition zones)” value in experiment [2] (compound (147) pre-incubation, three determinations) is recorded as “no impact”. Besides, in experiment [3], the “effect on antibiotic properties of five aminoglycosides (inhibition zones)” value is “Neither compound (175) nor compound (147) had any influence”.

In the case of `NC[C@H]1O[C@H](O[C@H]2[C@H](O)[C@@H](O[C@H]3O[C@H](CO)[C@@H](O)[C@H](N)[C@H]3O)[C@H](N)C[C@@H]2N)[C@H](N)C[C@@H]1O`, in experiment [1] (setting [4]), the MBC was 0.326 µg/mL and the minimum inhibitory concentration (MIC) came out at 0.195 µg/mL. In experiment [1] (pre-incubation with 0.1% DMSO), the MBC is 0.195 µg/mL and the MIC was determined as 0.195 µg/mL.

As to `[H]/N=C(/N)N[C@H]1[C@H](O)[C@@H](O)[C@H](O[C@@H]2O[C@@H](C)[C@](O)(C=O)[C@H]2O[C@@H]2O[C@@H](CO)[C@H](O)[C@@H](O)[C@@H]2NC)[C@@H](N/C(N)=N\[H])[C@@H]1O`, the minimal bactericidal concentration (MBC) was 16.67 µg/mL in experiment [1] (setting [4]) and 12.5 µg/mL in experiment [1] (pre-incubation with 0.1% DMSO). The MIC worked out at 8.33 µg/mL in experiment [1] (setting [4]) and 6.25 µg/mL in experiment [1] (pre-incubation with 0.1% DMSO).

On to `CCC(CC)Nc1cc(Nc2cccnn2)c2nnc(C3CC3)n2n1`, for which the “effect on susceptibility of PA-19660 to aminoglycosides” value in experiment [1] (10 μM compound (175)) is “no effect”. The “kinetic growth of bacterial strains” value in the experiment with P. aeruginosa strains was “remained unchanged”. The “effect on aminoglycoside growth inhibition (inhibition zones)” value in experiment [2] (10 μM compound (175), 2 hours pre-incubation, vs 0.1% DMSO, six determinations) is reported as “No noticeable differences”. Also, in experiment [3], the “effect on antibiotic properties of five aminoglycosides (inhibition zones)” value is given as “Neither compound (175) nor compound (147) had any influence”.
